Measurements as given in US6514997B2, “Antipicornaviral compounds and compositions, their pharmaceutical uses, and materials for their synthesis” (Agouron Pharmaceuticals, Inc., priority 1999, dated 2003).

Tests used:
HRV-14 = test: Antirhinoviral H1-HeLa cell culture assay (XTT cell protection, EC50), HRV-14; assay type: cell-based, human rhinovirus (HRV) serotype-14 in H1-HeLa cells
Outline: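 H1-HeLa cells were infected with HRV-14 at m.o.i. 0.13, or mock-infected, and incubated with compound for two days. Cell protection was read by XTT/PMS formazan absorbance at 450/650 nm to give EC50. CC50 came from mock-infected cells, and TI = CC50/EC50.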

[1] = system: Coxsackievirus type A-21 (CAV-21); test: Anticoxsackieviral cell culture assay (XTT, EC50), CAV-21; assay type: cell-based, coxsackievirus A-21 in H1-HeLa cells
Procedure: (§1) Anticoxsackieviral Cell Culture Assay:
(§2) Coxsackievirus types A-21 (CAV-21) and B3 (CVB3) were purchased from American Type Culture Collection (ATCC, Rockville, Md.). Virus stocks were propagated and antiviral assays were performed in H1-HeLa cells (ATCC). Cells were grown in minimal essential medium with 10% fetal bovine serum (Life Technologies, Gaithersburg, Md.). The ability of the compounds of this invention to protect cells against either CAV-21 or CVB3 infection was measured by the XTT dye reduction method. This method is described in Weislow et al., J. Natl. Cancer Inst. (1989), vol. 81, 577-586. H1-HeLa cells were infected with CAV-21 or CVB3 at a multiplicity of infection (m.o.i.) of 0.025 or 0.075, respectively, or mock-infected with medium only. H1-HeLa cells were plated at 4×10^4 cells per well in a 96-well plate and incubated with appropriate concentrations of the test compound. One day (CVB3) or two days (CAV-21) later, XTT/PMS was added to test plates and the amount of formazan produced was quantified spectrophotometrically at 450/650 nm. The EC50 was calculated as the concentration of compound that increased the formazan production in compound-treated, virus-infected cells to 50% of that produced by compound-free, uninfected cells. The 50% cytotoxic dose (CC50) was calculated as the concentration of compound that decreased formazan production in compound-treated, uninfected cells to 50% of that produced in compound-free, uninfected cells. The therapeutic index (TI) was calculated by dividing the CC50 by the EC50.

[2] = system: Coxsackievirus type B3 (CVB3); test: Anticoxsackieviral cell culture assay (XTT, EC50), CVB3; assay type: cell-based, coxsackievirus B3 in H1-HeLa cells
Procedure: as §1, §2

[3] = system: Echovirus type 11 (ECHO 11); test: Anti-echoviral cell culture assay (XTT, EC50), ECHO 11; assay type: cell-based, echovirus 11 in MRC-5 cells
Procedure: (§3) Anti-Echoviral and Anti-Enteroviral Cell Culture Assays
(§4) Echovirus type 11 (ECHO 11) was purchased from ATCC (Rockville, Md.). Virus stocks were propagated and antiviral assays were performed in MRC-5 cells (ATCC). Cells were grown in minimal essential medium with 10% fetal bovine serum (Life Technologies, Gaithersburg, Md.). The ability of the compounds of this invention to protect cells against ECHO 11 infection was measured by the XTT dye reduction method (Weislow et al., J. Natl. Cancer Inst. (1989), vol. 81, 577-586). MRC-5 cells were infected with ECHO 11 at an m.o.i. of 0.003 or 0.004, respectively, or mock-infected with medium only. Infected or uninfected cells were added at 1×10^4 cells per well and incubated with appropriate concentrations of compound. Four days later, XTT/PMS was added to test plates, and the amount of formazan produced was quantified spectrophotometrically at 450/650 nm. The EC50 was calculated as the concentration of compound that increased the formazan production in compound-treated, virus-infected cells to 50% of that produced by compound-free, uninfected cells. The 50% cytotoxic dose (CC50) was calculated as the concentration of compound that decreased formazan production in compound-treated, uninfected cells to 50% of that produced in compound-free, uninfected cells. The therapeutic index (TI) was calculated by dividing the CC50 by the EC50. Activity of the compounds against enterovirus type 70 (EV 70) may be measured by the same assay as described above in this section. Enterovirus type 70 (EV 70) may be obtained from the American Type Culture Collection ATCC (Rockville, Md.).

[4] = system: enterovirus type 70 (EV 70); test: Anti-enteroviral cell culture assay (XTT, EC50), EV 70; assay type: cell-based, enterovirus 70 in MRC-5 cells; conditions: ENT-70
Procedure: as §3, §4

[5] = system: strains of human rhinovirus (HRV); test: Antirhinoviral H1-HeLa cell culture assay (XTT cell protection, EC50), other HRV strains; assay type: cell-based, human rhinovirus in H1-HeLa cells
Outline: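 H1-HeLa cells infected, or mock-infected, were incubated with compounds for two days. Cell protection measured by XTT/PMS formazan absorbance at 450/650 nm; TI taken as CC50 divided by EC50.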

echovirus 6 (ECHO-6) = test: Anti-echoviral cell culture assay (EC50), ECHO-6; assay type: cell-based
coxsackievirus B2 (CVB2) = test: Anticoxsackieviral cell culture assay (EC50), CVB2; assay type: cell-based
echovirus 9 (ECHO-9) = test: Anti-echoviral cell culture assay (EC50), ECHO-9; assay type: cell-based
coxsackievirus B5 (CVB5) = test: Anticoxsackieviral cell culture assay (EC50), CVB5; assay type: cell-based

| SMILES | TI (HRV-14) | TI [1] | TI [2] | TI ([3]; ECHO-11) | TI ([5]; HRV-1A) | TI ([5]; HRV-2) | TI ([5]; HRV-3) | TI ([5]; HRV-9) | TI ([5]; HRV-11) | TI ([5]; HRV-13) | TI ([5]; HRV-16) | TI ([5]; HRV-19) | TI ([5]; HRV-23) | TI ([5]; HRV-25) | TI ([5]; HRV-39) | TI ([5]; HRV-78) | TI ([5]; HRV-Hanks) | TI (coxsackievirus B2 (CVB2)) | TI (echovirus 9 (ECHO-9)) | TI (coxsackievirus B5 (CVB5)) | further results |
| --- | --- | --- | --- | --- | --- | --- | --- | --- | --- | --- | --- | --- | --- | --- | --- | --- | --- | --- | --- | --- | --- |
| CCOC(=O)/C=C/[C@H](CCC(N)=O)NC(=O)[C@H](Cc1ccccc1)n1cccc(NC(=O)OCc2ccccc2)c1=O [Compound 1, trans-(2′S,4S)-4-[2′-(3″-Benzyloxycarbonylamino-2″-oxo-2″H-pyridin-1″-yl)-3′-phenylpropionylamino]-6-carbamoylhex-2-enoic Acid Ethyl Ester] | 1518 | >7 | >19 | >63 |  |  |  |  |  |  |  |  |  |  |  |  |  |  |  |  | TI [4]: >833 |
| CCOC(=O)/C=C/[C@H](C[C@@H]1CCNC1=O)NC(=O)[C@H](CC)n1cccc(NC(=O)c2cc(C)on2)c1=O [Compound 26, trans-(2′S,3″″S,4S)-4-(2′-{3″-[(5′″-Methylisoxazole-3′″-carbonyl)amino]-2″-oxo-2″H-pyridin-1″-yl}butyrylamino)-5-(2″″-oxopyrrolidin-3″″-yl)pent-2-enoic Acid Ethyl Ester] | >182 | >82 | >625 | >277 | >714 | >625 | >344 | >222 | >2500 | >172 | >200 | >153 | >250 | >98 | >212 | >175 | >185 | >181 | >666 | >555 | TI ([5]; HRV-10): >370; TI ([5]; HRV-87): >476; TI (echovirus 6 (ECHO-6)): >588 |
| C#CC[C@@H](C(=O)N[C@H](/C=C/C(=O)OCC)C[C@@H]1CCNC1=O)n1cccc(NC(=O)c2cc(C)on2)c1=O [Compound 31, trans-(2′S,3″″S,4S)-4-(2′-{3″-[(5′″-Methyl-isoxazole-3′″-carbonyl)amino]-2″-oxo-2″H-pyridin-1″-yl}pent-4′-ynoyl-amino)-5-(2″″-oxopyrrolidin-3″″-yl)pent-2-enoic Acid Ethyl Ester] | >454 | >62 | >416 | >769 | >277 | >769 | >476 | >227 | >2000 | >166 | >263 | >200 | >238 | >114 | >232 | >163 | >204 | >175 | >833 | >212 | TI ([5]; HRV-10): >208; TI ([5]; HRV-87): >476; TI (echovirus 6 (ECHO-6)): >476 |
| CCOC(=O)/C=C/[C@H](C[C@@H]1CCNC1=O)NC(=O)[C@H](Cc1ccc(F)c(F)c1)n1cccc(NC(=O)c2cc(C)on2)c1=O [Compound 33, trans-(2′S,3′″″S,4S)-4-(3′-(3″,4″-Difluorophenyl)-2′-{3′″-[(5″″-methylisoxazole-3″″-carbonyl)amino]-2′″-oxo-2′″H-pyridin-1′″-yl}propionylamino)-5-(2′″″-oxopyrrolidin-3′″″-yl)pent-2-enoic Acid Ethyl Ester] | >10000 | >2500 | >3333 | >625 |  | >3333 | >3333 | >666 | >3333 | >714 | >1666 | >2500 | >3333 | >357 | >2500 | >2000 | >2000 | >666 | >3333 | >400 | TI ([5]; HRV-87): >2000; TI (echovirus 6 (ECHO-6)): >666 |
| C#CC[C@@H](C(=O)N[C@H](/C=C/C(=O)OC(C)(C)C)C[C@@H]1CCNC1=O)n1cccc(NC(=O)c2cc(C)on2)c1=O [Compound 41, trans-(2′S,3′″″S,4S)-4-[2′-(3″-{[1′″-(5″″-Methylisoxazol-3″″-yl)methanoyl]amino}-2′″-oxo-2′″H-pyridin-1′″-yl)pent-4″-ynoylamino]-5-(2′″″-oxopyrrolidin-3′″″-yl)pent-2-enoic Acid tert-Butyl Ester] | >161 | >16 | >85 | >53 |  | >64 | >185 | >17 |  |  | >24 |  |  | >12 | >22 |  |  | >46 | >94 | >50 | TI ([5]; HRV-87): >166; TI (echovirus 6 (ECHO-6)): >68 |
| Cc1cc(C(=O)Nc2cccn([C@@H](Cc3ccc(F)c(F)c3)C(=O)N[C@H](/C=C/C(=O)OC(C)C)C[C@@H]3CCNC3=O)c2=O)no1 [Compound 48, trans-(2′S,3″″″S,4S)-4-[3′-(3″,4″-Difluorophenyl)-2′-(3′″-{[1″″-(5′″″-methylisoxazol-3′″″-yl)methanoyl]amino}-2″″-oxo-2″″H-pyridin-1″″-yl)propanoylamino]-5-(2″″″-oxopyrrolidin-3″″″-yl)pent-2-enoic Acid Isopropyl Ester] | >3333 | >8 | >53 |  | >75 | >208 | >333 | >91 | >3333 | >227 | >277 | >1111 | >1000 | >100 | >227 | >833 | >3333 | >62 | >175 | >56 | TI ([5]; HRV-10): >117 |
| C#CC[C@@H](C(=O)N[C@H](/C=C/C(=O)OC1CCC1)C[C@@H]1CCNC1=O)n1cccc(NC(=O)c2cc(C)on2)c1=O [Compound 53, trans-(2′S,3′″″S,4S)-4-[2′-(3″-{[1′″-(5″″-Methylisoxazol-3″″-yl)methanoyl]amino}-2′″-oxo-2′″H-pyridin-1′″-yl)pent-4″-ynoylamino]-5-(2′″″-oxopyrrolidin-3′″″-yl)pent-2-enoic Acid Cyclobutyl Ester] | >250 | >21 | >64 |  | >78 | >128 | >227 | >75 | >500 | >63 | >98 | >188 | >222 | >151 | >80 | >250 | >72 | >64 | >384 | >63 | TI ([5]; HRV-10): >270 |
| CCOC(=O)c1ccc(OCCC2CCN(c3ccc(C)nn3)CC2)cc1 [Pirodavir, reference compound] | >300 |  |  |  |  |  |  |  |  |  |  |  |  |  |  |  |  |  |  |  | TI ([3]; ECHO-11 (EV-11)): ta >3; TI [4]: >167 |
